Source: patent US20240122867A1, “CORONAL PROTEIN-COATED NANOPARTICLES AND USES THEREOF” (UNIVERSITY OF CENTRAL FLORIDA RESEARCH FOUNDATION, INC., priority 2021, published 2024)
Where two headings read alike, the source gives them in different places.

Tested on: coronal proteins on NPs
Set-up: species or system mouse
Conditions: for V5 Sera_Nanoparticles Quantitative Value (Normalized Total Spectra): 20:1 NP:sera, centrifuged and washed; for V5 Sera Alone (Control) Quantitative Value (Normalized Total Spectra): IAV day 5 (V5) mouse sera alone
[1] = HBPE-NPs incubated with IAV day 5 (V5) mouse sera 1 h
[2] = no NPs, mass spectrometry protein identification
[3] = HBPE-NPs incubated 1 h with IAV day 5 (V5) mouse sera

B1: Proteasome subunit alpha type-2 (protein, UniProt P49722 2-234, looked up)
Proteasome subunit alpha …: AERGYSFSLTTFSPSGKLVQIEYALAAVAGGAPSVGIKAANGVVLATEKKQKSILYDERSVHKVEPITKHIGLVYSGMGPDYRVLVHRARKLAQQYYLVYQEPIPTAQLVQRVASVMQEYTQSGGVRPFGVSLLICGWNEGRPYLFQSDPSGAYFAWKATAMGKNYVNGKTFLEKRYNEDLELEDAIHTAILTLKESFEGQMTEDNIEVGICNEAGFRRLTPTEVRDYLAAIA
For B1, the “V5 Sera_Nanoparticles Quantitative Value (Normalized Total Spectra)” value [1] was 0 and the “V5 Sera Alone (Control) Quantitative Value (Normalized Total Spectra)” value (“V5 Sera Alone … (Normalized Total Spectra)” below) [2] was 0.9252.

B2: Cluster of Carboxylesterase 1C (protein, UniProt P23953 19-554, looked up)
Carboxylesterase 1C: HSLLPPVVDTTQGKVLGKYISLEGFEQPVAVFLGVPFAKPPLGSLRFAPPQPAEPWSFVKNATSYPPMCSQDAGWAKILSDMFSTEKEILPLKISEDCLYLNIYSPADLTKSSQLPVMVWIHGGGLVIGGASPYNGLALSAHENVVVVTIQYRLGIWGLFSTGDEHSPGNWAHLDQLAALRWVQDNIANFGGNPDSVTIFGESSGGISVSVLVLSPLGKDLFHRAISESGVVINTNVGKKNIQAVNEIIATLSQCNDTSSAAMVQCLRQKTESELLEISGKLVQYNISLSTMIDGVVLPKAPEEILAEKSFNTVPYIVGFNKQEFGWIIPMMLQNLLPEGKMNEETASLLLRRFHSELNISESMIPAVIEQYLRGVDDPAKKSELILDMFGDIFFGIPAVLLSRSLRDAGVSTYMYEFRYRPSFVSDKRPQTVEGDHGDEIFFVFGAPLLKEGASEEETNLSKMVMKFWANFARNGNPNGEGLPHWPEYDEQEGYLQIGATTQQAQRLKAEEVAFWTELLAKNPPETDPTEHTEHK
B2 was tested, and the “V5 Sera_Nanoparticles Quantitative Value (Normalized Total Spectra)” value [3] was 25.022 and the “V5 Sera Alone … (Normalized Total Spectra)” value (no NPs (sera-only control)) was 30.533.

B3: BPI fold-containing family A member 1 (protein, UniProt P97361 20-278, looked up)
BPI fold-containing family A …: QLAGLPLPLGQGPPLPLNQGPPLPLNQGQLLPLAQGLPLAVSPALPSNPTDLLAGKFTDALSGGLLSGGLLGILENIPLLDVIKSGGGNSNGLVGGLLGKLTSSVPLLNNILDIKITDPQLLELGLVQSPDGHRLYVTIPLGLTLNVNMPVVGSLLQLAVKLNITAEVLAVKDNQGRIHLVLGDCTHSPGSLKISLLNGVTPVQSFLDNLTGILTKVLPELIQGKVCPLVNGILSGLDVTLVHNIAELLIHGLQFVIKV
For B3, the “V5 Sera_Nanoparticles Quantitative Value (Normalized Total Spectra)” value [1] was 0 and the “V5 Sera Alone … (Normalized Total Spectra)” value [2] was 0.9252.

B4: Apolipoprotein E (protein, UniProt P08226 19-311, looked up)
Apolipoprotein E: EGEPEVTDQLEWQSNQPWEQALNRFWDYLRWVQTLSDQVQEELQSSQVTQELTALMEDTMTEVKAYKKELEEQLGPVAEETRARLGKEVQAAQARLGADMEDLRNRLGQYRNEVHTMLGQSTEEIRARLSTHLRKMRKRLMRDAEDLQKRLAVYKAGAREGAERGVSAIRERLGPLVEQGRQRTANLGAGAAQPLRDRAQAFGDRIRGRLEEVGNQARDRLEEVREHMEEVRSKMEEQTQQIRLQAEIFQARLKGWFEPIVEDMHRQWANLMEKIQASVATNPIITPVAQENQ
For B4, the “V5 Sera_Nanoparticles Quantitative Value (Normalized Total Spectra)” value [3] was 26.11 and the “V5 Sera Alone … (Normalized Total Spectra)” value (no NPs (sera-only control)) was 63.841.

B5: Apolipoprotein A-IV (protein, UniProt P06728 21-395, looked up)
Apolipoprotein A-IV: EVTSDQVANVVWDYFTQLSNNAKEAVEQFQKTDVTQQLSTLFQDKLGDASTYADGVHNKLVPFVVQLSGHLAQETERVKEEIKKELEDLRDRMMPHANKVTQTFGENMQKLQEHLKPYAVDLQDQINTQTQEMKLQLTPYIQRMQTTIKENVDNLHTSMMPLATNLKDKFNRNMEELKGHLTPRANELKATIDQNLEDLRRSLAPLTVGVQEKLNHQMEGLAFQMKKNAEELQTKVSAKIDQLQKNLAPLVEDVQSKVKGNTEGLQKSLEDLNRQLEQQVEEFRRTVEPMGEMFNKALVQQLEQFRQQLGPNSGEVESHLSFLEKSLREKVNSFMSTLEKKGSPDQPQALPLPEQAQEQAQEQAQEQVQPKPLES
For B5, the “V5 Sera_Nanoparticles Quantitative Value (Normalized Total Spectra)” value [3] was 25.022 and the “V5 Sera Alone … (Normalized Total Spectra)” value (no NPs (sera-only control)) was 57.364.

B6: Discoidin domain-containing receptor 2 (protein, UniProt Q62371 22-854, looked up)
Discoidin domain-containing …: KAQVNPAICRYPLGMSGGHIPDEDITASSQWSESTAAKYGRLDSEEGDGAWCPEIPVQPDDLKEFLQIDLRTLHFITLVGTQGRHAGGHGIEFAPMYKINYSRDGSRWISWRNRHGKQVLDGNSNPYDVFLKDLEPPIVARFVRLIPVTDHSMNVCMRVELYGCVWLDGLVSYNAPAGQQFVLPGGSIIYLNDSVYDGAVGYSMTEGLGQLTDGVSGLDDFTQTHEYHVWPGYDYVGWRNESATNGFIEIMFEFDRIRNFTTMKVHCNNMFAKGVKIFKEVQCYFRSEASEWEPTAVYFPLVLDDVNPSARFVTVPLHHRMASAIKCQYHFADTWMMFSEITFQSDAAMYNNSGALPTSPMAPTTYDPMLKVDDSNTRILIGCLVAIIFILLAIIVIILWRQFWQKMLEKASRRMLDDEMTVSLSLPSESSMFNNNRSSSPSEQESNSTYDRIFPLRPDYQEPSRLIRKLPEFAPGEEESGCSGVVKPAQPNGPEGVPHYAEADIVNLQGVTGGNTYCVPAVTMDLLSGKDVAVEEFPRKLLAFKEKLGEGQFGEVHLCEVEGMEKFKDKDFALDVSANQPVLVAVKMLRADANKNARNDFLKEIKIMSRLKDPNIIRLLAVCITEDPLCMITEYMENGDLNQFLSRHEPLSSCSSDATVSYANLKFMATQIASGMKYLSSLNFVHRDLATRNCLVGKNYTIKIADFGMSRNLYSGDYYRIQGRAVLPIRWMSWESILLGKFTTASDVWAFGVTLWETFTFCQEQPYSQLSDEQVIENTGEFFRDQGRQIYLPQPALCPDSVYKLMLSCWRRETKHRPSFQEIHLLLLQQGAE
For B6, the “V5 Sera_Nanoparticles Quantitative Value (Normalized Total Spectra)” value [1] was 0 and the “V5 Sera Alone … (Normalized Total Spectra)” value [2] was 0.9252.

B7: Cardiotrophin-like cytokine factor 1 (protein, UniProt Q9QZM3 28-225, looked up)
Cardiotrophin-like cytokine …: LNRTGDPGPGPSIQKTYDLTRYLEHQLRSLAGTYLNYLGPPFNEPDFNPPRLGAETLPRATVNLEVWRSLNDRLRLTQNYEAYSHLLCYLRGLNRQAATAELRRSLAHFCTSLQGLLGSIAGVMATLGYPLPQPLPGTEPAWAPGPAHSDFLQKMDDFWLLKELQTWLWRSAKDFNRLKKKMQPPAASVTLHLEAHGF
With B7 the “V5 Sera_Nanoparticles Quantitative Value (Normalized Total Spectra)” value [1] was 0 and the “V5 Sera Alone … (Normalized Total Spectra)” value [2] was 0.9252.

B8: Coagulation factor XIII B chain (protein, UniProt Q07968 22-669, looked up)
Coagulation factor XIII B …: EEKQCDFPTVENGRIAQYYYTFKSFYFPMSVDKKLSFFCLAGYATESGKQEEQIRCTAEGWSPNPRCYKKCLKPDLRNGYVSNDKVLYKLQERMSYGCSSGYKTTGGKDEEVVHCLSAGWSSQPSCRKEQETCLAPELEHGNYSTTQRTFKVKDIVAYTCTAGYYTTTGKQTGEAECQANGWSLTPQCNKLMCSSLRLIENGYFHPVKQTYEEGDVVQFFCHENYYLSGSDLIQCYNFGWYPESPICEGRRNRCPPPPVPLNSKIQPHSTTYRHGERVHIECELNFVIQGSEELLCENGKWTEPPKCIEEKEKVACEQPPSVENGVAHPHSEIYYSGDKVTYRCGGGYSLRGSSTITCNRGRWTLPPECVENIENCKPPPDIANGVVVDGLLASYTTGSSVEYRCNEYYLLKGSETSRCEQGAWSSPPVCLEPCTIDVDHMNRNNIQLKWKYEGKILHGDLIDFVCKQGYNLSPSIPLSEISAQCNRGDVRYPMCIRKESKGMCASPPVIRNGDIVSSAARTYENGSSVEYRCFDNHFLQGSQNVYCVDGVWTTPPSCLEPCTLSFVEMDKNYLQLKWNFDNRPLILHGEYIEFMCKRDAYISETSIAGSVLRVQCDRGRLKYPKCTPRDRRLSFQEALRTRRQMEKR
For B8, the “V5 Sera_Nanoparticles Quantitative Value (Normalized Total Spectra)” value [1] was 0 and the “V5 Sera Alone … (Normalized Total Spectra)” value [2] was 0.9252.

B9: Polypeptide N-acetylgalactosaminyltransferase 13 (protein, UniProt Q8CF93 1-556, looked up)
Polypeptide …: MRRFVYCKVVLATSLMWVLVDVFLLLYFSECNKCDDKKERSLLPALRAVISRNQEGPGEMGKAVLIPKDDQEKMKELFKINQFNLMASDLIALNRSLPDVRLEGCKTKVYPDELPNTSVVIVFHNEAWSTLLRTVYSVINRSPHYLLSEVILVDDASERDFLKLTLENYVKTLEVPVKIIRMEERSGLIRARLRGAAASKGQVITFLDAHCECTLGWLEPLLARIKEDRKTVVCPIIDVISDDTFEYMAGSDMTYGGFNWKLNFRWYPVPQREMDRRKGDRTLPVRTPTMAGGLFSIDRNYFEEIGTYDAGMDIWGGENLEMSFRIWQCGGSLEIVTCSHVGHVFRKATPYTFPGGTGHVINKNNRRLAEVWMDEFKDFFYIISPGVVKVDYGDVSVRKTLRENLKCKPFSWYLENIYPDSQIPRRYYSLGEIRNVETNQCLDNMGRKENEKVGIFNCHGMGGNQVFSYTADKEIRTDDLCLDVSRLSGPVIMLKCHHMRGNQLWEYDAERLTLRHANSNQCLDEPSEEDKMVPTMQDCSGSRSQQWLLRNMTLGT
With B9 the “V5 Sera_Nanoparticles Quantitative Value (Normalized Total Spectra)” value [1] was 0 and the “V5 Sera Alone … (Normalized Total Spectra)” value [2] was 0.9252.

B10: Antileukoproteinase (protein, UniProt P97430 26-131, looked up)
Antileukoproteinase: GKNDAIKIGACPAKKPAQCLKLEKPQCRTDWECPGKQRCCQDACGSKCVNPVPIRKPVWRKPGRCVKTQARCMMLNPPNVCQRDGQCDGKYKCCEGICGKVCLPPM
In the case of B10, the “V5 Sera_Nanoparticles Quantitative Value (Normalized Total Spectra)” value [1] is reported as 0 and the “V5 Sera Alone … (Normalized Total Spectra)” value [2] is reported as 0.9252.
